Measurements: patent US20240109955A1 (published 2024)

How the values were obtained:
Assay in all cases: cell-based or functional assay
[1] = target: SARS-CoV-2 Omicron BA.4/5 spike protein (SARS-CoV-2)
[2] = target: SARS-CoV-2 Omicron BQ.1 spike protein (SARS-CoV-2)
[3] = target: SARS-CoV-2 Omicron BQ.1.1 spike protein (SARS-CoV-2)
[4] = target: SARS-CoV-2 Omicron BA.2.75.2 spike protein (SARS-CoV-2)
[5] = target: SARS-CoV-2 Omicron XBB spike protein (SARS-CoV-2)

B1: MX1047 (bispecific antibody)
chain 1: DTVMTQSPLSLPVTPGEPASISCRSSQSLLNSNGYNYLDWYVQKPGQSPQLLIYLGSNRASGVPDRFSGSGSGTDFTLKISRVEAEDVGVYYCMQPLQTPLFTFGPGTKVEIKGGSSGEIVLTQSPGTLSLSPGERATLSCRASQSVSSSYLAWYQQKPGQAPRLLIYSASSRATGIPDRFSGSGSGTDFTLTISRLEPEDFAVYFCQQYVGLTGWTFGQGTKVEIKGGGGSGGSGSGGGGSASGSGQMQLVQSGPEVKKPGTSVKVSCKASGFTFTSSAVQWVRQRQRLEWIGWIVVGSGNTNYAQKFQERVTITRDMSTSTAYMELSSLRSEDTAVYYCAAPNCSNVVCYDGFDIWGQGTMVTVSSGGSSGQVTLRESGPALVKPTQTLTLTCTFSGFSLSTRGVCVSWIRQPPGKALEWLAFIDWDDDKYYNTSLKTRLTISKDTSKNQVVLTMTNVHPVDTATYYCARISSHHGSSWCTTFDYWGQGALVTVSAASGGSGDKTHTCPPCPAPELLGGPSVFLFPPKPKDTLMISRTPEVTCVVVDVSHEDPEVKFNWYVDGVEVHNAKTKPREEQYNSYVVSVLTVLHQDWLNGKEYKCKVSNKALPAPIEKTISKAKGQPREPQVYTLPPSRDELTKNQVSLTCLVKGFYPSDIAVEWESNGQPENNYKTTPPVLDSDGSFFKKLTVDKSRWQQGNVFSCSVLHEALHSHYTQKSLSLSPG
chain 2: EIVLTQSPGTLSLSPGERATLSCRASQSVSSSYLAWYQQKPGQAPRLLIYSASSRATGIPDRFSGSGSGTDFTLTISRLEPEDFAVYFCQQYVGLTGWTFGQGTKVEIKGGSSGQTVVTQEPSFSVSPGGTVTLTCGLSSGSVSTAYFPSWYQQTPGQAPRTLIYGTNTRSSGVPDRFSGSILGNKAALTITGAQADDESDYYCVLYMGRGIVVFGGGTKLTVLGGGGSGGSGSGGGGSASGSGQVQLVESGGGVVQPGRSLRLSCAASGFTLSSYGMHWVRQAPGKGLEWVAVISYDGSNKYYVDSVKGRFTISRDNSKNTLYLQMNSLRAEDTAVYYCRWAYWELLPDYYYGMDVWGQGTTVTVSSGGSSGQMQLVQSGPEVKKPGTSVKVSCKASGFTFTSSAVQWVRQRQRLEWIGWIVVGSGNTNYAQKFQERVTITRDMSTSTAYMELSSLRSEDTAVYYCAAPNCSNVVCYDGFDIWGQGTMVTVSSASGGSGDKTHTCPPCPAPELLGGPSVFLFPPKPKDTLMISRTPEVTCVVVDVSHEDPEVKFNWYVDGVEVHNAKTKPREEQYNSYVVSVLTVLHQDWLNGKEYKCKVSNKALPAPIEKTISKAKGQPREPQVYTLPPSRDELTKNQVSLTCLVKGFYPSDIAVEWESNGQPENNYKTTPPVLDSDGSFFKKLTVDKSRWQQGNVFSCSVLHEALHSHYTQKSLSLSPG
For B1, the “IC50, pseudovirus neutralization” value [1] was 0.00346 µg/mL, the “IC80, pseudovirus neutralization” value [1] was 0.00846 µg/mL and the “IC50, pseudovirus neutralization” value [2] was 0.0197 µg/mL. The “IC80, pseudovirus neutralization” value [2] was 0.19 µg/mL, the “IC50, pseudovirus neutralization” value [3] was 0.0967 µg/mL and the “IC80, pseudovirus neutralization” value [3] was 0.7 µg/mL. The “IC50, pseudovirus neutralization” value [4] was 0.00436 µg/mL, the “IC80, pseudovirus neutralization” value [4] was 0.0258 µg/mL and the “IC50, pseudovirus neutralization” value [5] was 0.208 µg/mL. For the same binder, the “IC80, pseudovirus neutralization” value [5] was 3.29 µg/mL.
